Values of other authors, collected in US20150045422A1 (priority 2005, published 2015).

Experiments:
Details in all cases: Table 3
HEp2 (epidermoid) = test system: HEp2 (epidermoid)
HL (lymphocyte) = test system: HL (lymphocyte)
[1] = test system: Herpes Simplex Virus Type 2 (HSV2)
HEK (kidney) = test system: HEK (kidney)
HeLa (uterine) = test system: HeLa (uterine)

Substance: Roridin A
- PSR Potency in Human Cells (IC50) HEp2 (HEp2 (epidermoid)): 2 ng/mL
- PSR Potency in Human Cells (IC50) HL (HL (lymphocyte)): 3 ng/mL
- PSR Potency in Human Cells (IC50) HSV2 [1]: 1.4 ng/mL
- PSR Potency in Human Cells (IC50) HEK (HEK (kidney)): 3 ng/mL
- PSR Potency in Human Cells (IC50) HeLa (HeLa (uterine)): 3 ng/mL

Substance: Satratoxin G
- PSR Potency in Human Cells (IC50) HEp2 (HEp2 (epidermoid)): 2 ng/mL
- PSR Potency in Human Cells (IC50) HSV2 [1]: 1.5 ng/mL

Substance: Verrucarin A
- PSR Potency in Human Cells (IC50) HEp2 (HEp2 (epidermoid)): 1 ng/mL
- PSR Potency in Human Cells (IC50) HL (HL (lymphocyte)): 3 ng/mL
- PSR Potency in Human Cells (IC50) HEK (HEK (kidney)): 2 ng/mL
- PSR Potency in Human Cells (IC50) HeLa (HeLa (uterine)): 5 ng/mL
